Measured values: US11767303B2, “Compounds and methods for inhibiting viral replication and methods of treating and preventing flaviviral infections” (priority 2020, dated 2023)

Assays:
[1] = tested on: DENV2; assay: Viral titer (plaque) reduction assay, DENV2 in A549 cells; assay type: cell-based, Dengue virus serotype 2; conditions: CC50/EC50
Protocol: Viral Titer Reduction Assay. A viral titer reduction assay was used to determine the compounds' effect on DENV2 and ZIKV strains, as described previously. […] Human A549 lung carcinoma cells and human primary neural progenitor cells were used, as described previously. […] 13:e1006411 (2017), which are hereby incorporated by reference in their entirety. All experiments were performed in triplicates.
A viral plaque reduction assay was performed next to evaluate the antiviral efficacy of these derivatives. Human lung carcinoma A549 cells were infected with DENV2 in the presence of a concentration series of derivatives or a dimethyl sulfoxide (DMSO) control, and viral titers were measured at 48 hrs post-infection, as described previously.

[2] = tested on: ZIKV; assay: Viral titer reduction assay, ZIKV in A549 cells; assay type: cell-based, Zika virus; conditions: CC50/EC50
Protocol: Viral Titer Reduction Assay. A viral titer reduction assay was used to determine the compounds' effect on DENV2 and ZIKV strains, as described previously. […] Human A549 lung carcinoma cells and human primary neural progenitor cells were used, as described previously. […] All experiments were performed in triplicates.

| Structure (SMILES) | TI (DN2) [1] | TI (ZK) [2] |
| --- | --- | --- |
| Cl.O=C(Nc1ccc([N+](=O)[O-])cc1Cl)c1cc(Cl)ccc1OC1CCNCC1 [HJC0125] | 239 | 335 |
| O=C(Nc1ccc2c(c1)S(=O)(=O)C=C2)c1cc(Cl)ccc1O [HJC0149] | 268 | 219 |
| NCCCOc1ccc(Cl)cc1C(=O)Nc1ccc([N+](=O)[O-])cc1Cl [HJC0308] | 12.6 | 2.8 |
| CN1CCN(CCOc2ccc(Cl)cc2C(=O)Nc2ccc([N+](=O)[O-])cc2Cl)CC1 [HJC0365] | 27.6 | 29.5 |
| CN1CCC(Oc2ccc(Cl)cc2C(=O)Nc2ccc([N+](=O)[O-])cc2Cl)CC1 [HJC0381] | 76 | 23.3 |
| CC[C@H](N)COc1ccc(Cl)cc1C(=O)Nc1ccc([N+](=O)[O-])cc1Cl [HJC0390] | 70 | >300 |
| NCCCCOc1ccc(Cl)cc1C(=O)Nc1ccc([N+](=O)[O-])cc1Cl [HJC0431] | 13 | 79 |
| O=C(Nc1ccc([N+](=O)[O-])cc1Cl)c1cccc([N+](=O)[O-])c1O [JMX0207, N-(2-Chloro-4-nitrophenyl)-2-hydroxy-3-nitrobenzamide] | 103 | 106 |
| O=C(Nc1ccc([N+](=O)[O-])cc1Cl)c1cc(Cl)ccc1O [Niclosamide, reference compound] | 8.7 | 10.0 |
